{"source": "patent US20140315822A1", "target": "T1, PDZ domain of the human MAST2 protein (human), Q6P0Q8", "T1 chain": "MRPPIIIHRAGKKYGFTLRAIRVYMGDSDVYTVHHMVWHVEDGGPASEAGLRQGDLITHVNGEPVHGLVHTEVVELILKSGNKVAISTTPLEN", "assay": "ITC, 298 K, MAST2-PDZ (30 µM) titrated with peptide"}
{"binder": "SWEVHGQQTRL (modifications not checked)", "note": "[454 (Neurovita 3)]", "values": [{"measurement": "Kd", "result": 62.9, "unit": "nM"}]}
